From publication PMC10689320 (Dermatology and Therapy, 2023)

Experiment: Safety: adverse event monitoring
Format: in vivo, healthy Chinese subjects
Settings: whole study

## Deucravacitinib
  electrocardiogram results and vital signs: No clinically significant abnormal electrocardiogram results or changes in vital signs were observed
